{
  "source": "patent US6455558B1",
  "about": "“Biocide composition and use” (Avecia Limited, priority 1998, dated 2002)",
  "test_system": "mixed inoculum of Aureobasidium pullulans, Fusarium solani, Penicillium funicularum, Scopulariopsis brevicaulis and Streptoverticillium waksmanii",
  "test": "Soil burial test of plasticised PVC strips containing biocide: weight loss after 20 weeks",
  "conditions": "buried in inoculated potting compost, 25° C.",
  "data": [
    {"substance": "4,5-dichloro-N-n-octyl isothiazolin-3-one", "values": [
      {"measurement": "Actual % Weight Loss", "setting": "amount 500 (ppm)", "result": 7.398, "unit": "%"},
      {"measurement": "Actual % Weight Loss", "setting": "amount 1000 (ppm)", "result": 7.358, "unit": "%"},
      {"measurement": "Actual % Weight Loss", "setting": "amount 2000 ppm", "result": 7.818, "unit": "%"},
      {"measurement": "Actual % Weight Loss", "setting": "amount 3000 (ppm)", "result": 6.479, "unit": "%"}
    ]}
  ]
}
